Compound potency records, mixed from different reports. Data source: NIAID ChemDB in PubChem.

Common to all: growth or infection tests; species: Rhinovirus

MIC50, MIC90 and the like: level of inhibition, or share of isolates inhibited. ECn: concentration that inhibits the pathogen or its effect by n%. Neighbouring rows are from separate reports. An empty or dashed field is not shown.

| smiles | read by | strain | measure | cell line | value |
|---|---|---|---|---|---|
| COc1ccc(-c2snc(SC)c2C#N)cc1 | cytopathic effect | Serotype 42 (group A) | EC50 | HELA-OHIO | >12 µM |
| Cn1c2ccccc2c2nnc(NCC(C)(C)CO)nc21 | plaque count | 2060 | EC50 | WI-38 | 220 µg/mL |
| N#Cc1ccc2c(c1)CC(c1ccccc1)CO2 | plaque count | Serotype 1B | EC50 | HeLa | 0.58 µM |
| CCOC(=O)c1ccc(OCCCOc2ccc(-c3snc(SC)c3C#N)cc2)cc1 | cytopathic effect | Serotype 59 (group B) | EC50 | HELA-OHIO | >2 µM |
| Cc1cc(CCCCCOc2c(Cl)cc(C3=NCCO3)cc2Cl)on1 | plaque count | TYPE 18 | EC50 | HeLa | 0.26 µg/mL |
| CCCn1nc2ccc(OCCC3CCN(c4ccc(C)nn4)CC3)cc2n1 | cytopathic effect | Serotype 2 | EC50 | MRC-5 | 0.032 µg/mL |
| CS(=O)(=O)c1ccc(NCCc2ccc(Cl)c(Cl)c2)nc1 | cytopathic effect | TYPE 64 | EC50 | HeLa | <1.3 µg/mL |
| CSc1nsc(-c2ccc(OCCCOc3ccccc3)cc2)c1C#N | cytopathic effect | Serotype 59 (group B) | EC50 | HELA-OHIO | >20 µM |
| OCCCNc1nnc2c3ccccc3n(Cc3ccccc3)c2n1 | plaque count | 1059 | EC50 | WI-38 | 4 µg/mL |
| CCOC(=O)/C=C/[C@H](C[C@@H]1CCNC1=O)NC(=O)[C@@H](CC(=O)[C@@H](NC(=O)c1cc(C)on1)C(C)C)Cc1ccc(F)cc1 | cytopathic effect / visual reading | Isolate 27 | EC50 | OHIO HELA-I | 0.01 µg/mL |
| CSc1ccc(Cc2ccc(S(C)(=O)=O)cn2)cc1 | cytopathic effect | TYPE 64 | EC50 | HeLa | 1.3 µg/mL |
| CSc1nsc(-c2ccc(OCCCOc3ccc([N+](=O)[O-])cc3)cc2)c1C#N | cytopathic effect | Serotype 51 (group B) | EC50 | HELA-OHIO | >1 µM |
| CCOc1cc(OC)ccc1-c1cc(N(CC)CC)no1 | cytopathic effect | Serotype 15 (group B) | EC50 | HeLa | 5 µM |
| CCc1nc(-c2cc(C)c(OCCCc3cc(COC)no3)c(C)c2)no1 | cytopathic effect | Serotype 21 | EC50 | HeLa | 0.01 µg/mL |
| CCOc1nc2ccc(OCCC3CCN(c4nnc(C)c(C)n4)CC3)cc2o1 | cytopathic effect | Serotype 2 | EC50 | MRC-5 | >0.25 µg/mL |
| CN(C)c1nc(C(F)(F)F)nc2c1ncn2Cc1ccc(Cl)c(NC=O)c1 | plaque count | Serotype 13 | EC50 | M-HELA | >8 µM |
| CCOc1noc2cc(OCCCCCc3cc(C)no3)ccc12 | cytopathic effect | Serotype 2 | EC50 | MRC-5 | 0.035 µg/mL |
| CCS(=O)(=O)c1ccc(Cc2ccc(Cl)c(Cl)c2)nc1 | cytopathic effect | TYPE 1A | EC50 | HeLa | 0.6 µg/mL |
| CC(=O)c1ccc(CCCOc2c(C)cc(-c3noc(C(F)F)n3)cc2C)nn1 | cytopathic effect | serotypes 3 4 5 9 16 18 38 66 75 67 | EC50 | HeLa | 0.07 µg/mL |
| CN(C)c1nc(C(F)(F)F)nc2c1ncn2Cc1ccc(S(C)(=O)=O)cc1 | plaque count | Serotype 14 | EC50 | M-HELA | >8 µM |
| N#Cc1ccc(C2COc3ccc(C#N)cc3C2)cc1 | plaque count | Serotype 1B | EC50 | HeLa | 14.4 µM |
| Cc1cc(CCCCCOc2cc(Cl)c(-c3nnco3)c(Cl)c2)on1 | - | Serotype 14 | MIC80 | - | 2.02 µg/mL |
| CSc1nsc(-c2ccc(OCc3ccccc3)cc2)c1C#N | cytopathic effect | Serotype 63 (group B) | EC50 | HELA-OHIO | 10 µM |
| CS(=O)(=O)c1ccc(Oc2ccc(C(=O)c3ccccc3)cc2)nc1 | cytopathic effect | TYPE 33 | EC50 | HeLa | >5 µg/mL |
| CCn1c(-c2cccc(F)c2)c(C)c(=O)c2cc(C(C)C)ccc21 | cytopathic effect | TYPE 89/41617-GALLO | EC50 | HELA-OHIO | 0.38 µg/mL |
| Cc1cc(OCCCc2ccc(C=O)nn2)cc(C)c1-c1noc(C(F)F)n1 | cytopathic effect | serotypes 3 4 5 9 16 18 38 66 75 67 | EC50 | HeLa | 0.05 µg/mL |
| CCN(CC)c1cc(-c2ccc(OC)cc2OC)on1 | cytopathic effect | Serotype 85 (group B) | EC50 | HeLa | 42.6 µM |
| Cc1cc(CCCCCOc2cc(Cl)c(-c3nnc(C)o3)c(Cl)c2)on1 | - | Serotype 22 | MIC80 | - | 0.018 µg/mL |
| CCCc1ccc(CCCOc2ccc(-c3ccccc3)c(Br)c2)nn1 | cytopathic effect | serotypes 3 4 5 9 16 18 38 66 75 67 | EC50 | HeLa | 0.01 µg/mL |
| CS(=O)(=O)c1ccc(Cc2ccc(Cl)c(Cl)c2)nc1 | cytopathic effect | TYPE 10 | EC50 | HeLa | 2.5 µg/mL |
| CC(=O)NCCCNc1nnc2c3ccccc3n(C)c2n1 | plaque count | HGP | EC50 | WI-38 | 100 µg/mL |
| C#CCOc1cc(OC)ccc1-c1cc(N(CC)CC)no1 | cytopathic effect | Serotype 63 (group B) | EC50 | HeLa | >40 µM |
| CC(C)S(=O)(=O)c1ccc(Cc2ccc(Cl)c(Cl)c2)nc1 | cytopathic effect | TYPE 64 | EC50 | HeLa | 0.6 µg/mL |
| COc1ccc(-c2cc(N3CCCC3)no2)c(O)c1 | cytopathic effect | Serotype 63 (group B) | EC50 | HeLa | >384 µM |
| CCOC(=O)c1ccc(OCCC2CCN(c3ccc(C)nn3)CC2)cc1 | cytopathic effect | Serotype 36 | EC50 | WI-38 | <0.1 µg/mL |
| CSc1nsc(-c2ccc(OCc3ccccc3)cc2)c1C#N | cytopathic effect | Serotype 51 (group B) | EC50 | HELA-OHIO | 19 µM |
| CS(=O)(=O)c1ccc(NCc2ccc(Cl)c(Cl)c2)nc1 | cytopathic effect | HTYPE NK'S | EC50 | HeLa | 5 µg/mL |
| CN(C)CCCNc1nnc2c3ccccc3n(C)c2n1 | plaque count | 33342 | EC50 | WI-38 | 4 µg/mL |
| N=C(N)c1ccc(C2CCc3ccccc3O2)cc1 | cytopathic effect | Serotype 1B | EC50 | HeLa | 8 µM |
| CSc1nsc(-c2ccc(OCCCCOc3ccc([N+](=O)[O-])cc3)cc2)c1C#N | cytopathic effect | Serotype 51 (group B) | EC50 | HELA-OHIO | >0.5 µM |
| CCCn1c2ccccc2c2n[nH]c(=S)nc21 | plaque count | 1059 | EC50 | WI-38 | 20 µg/mL |
| Cc1c(-c2ccccc2)n(-c2cccc(F)c2)c2ccc(C(C)C)cc2c1=O | cytopathic effect | Clinical isolate | EC50 | HELA-OHIO | 0.017 µg/mL |
| COc1ccc(-c2cc(N(C)C)no2)c(O)c1 | cytopathic effect | Serotype 14 | EC50 | HeLa | >427 µM |
| CN(C)c1nc(C(F)(F)F)nc2c1ncn2Cc1ccc([N+](=O)[O-])cc1 | plaque count | Serotype 21 | EC50 | M-HELA | >8 µM |
| Cc1ccc(N2CCC(CCOc3ccc4oc(C)nc4c3)CC2)nn1 | cytopathic effect | Serotype 1A | EC50 | MRC-5 | 0.12 µg/mL |
| CN(C)c1nc(C(F)(F)F)nc2c1ncn2Cc1ccc(Cl)c(N)c1 | plaque count | Serotype 13 | EC50 | M-HELA | >8 µM |
| Cn1c2ccccc2c2nnc(NCCCCCCO)nc21 | plaque count | HGP | EC50 | WI-38 | 20 µg/mL |
| CCO/N=C/c1ccc(OCCC2CCN(c3ccc(Cl)nn3)CC2)cc1 | neutral red | 5426-CV26 (ICAM-1 receptor group 25) | EC50 | KB | 6.701 µM |
| Fc1cccc(Cn2cnc3c(Nc4cccc(F)c4)nc(C(F)(F)F)nc32)c1 | plaque count | Serotype 38 | EC50 | M-HELA | 1 µM |
| N#Cc1ccc(C2CCc3cc(C#N)ccc3O2)cc1 | plaque count | Serotype 1B | EC50 | HeLa | 0.023 µM |
| CCSc1nc2ccc(OCCC3CCN(c4ccc(Cl)nn4)CC3)cc2o1 | cytopathic effect | Serotype 14 | EC50 | MRC-5 | 0.02 µg/mL |
| Cc1c(-c2ccccc2)n(-c2ccc(F)cc2)c2ccc(C(C)C)cc2c1=O | cytopathic effect | 8/MRH | EC50 | HELA-OHIO | >2 µg/mL |
| Cc1ccc(Cn2cnc3c(N(C)C)nc(C(F)(F)F)nc32)c(C)c1 | plaque count | Serotype 29 | EC50 | M-HELA | >8 µM |
| CSc1nsc(-c2ccccc2)c1C#N | cytopathic effect | Serotype 9 (group B) | EC50 | HELA-OHIO | >80 µM |
| CCOc1cc(CCCOc2c(C)cc(-c3noc(C)n3)cc2C)on1 | cytopathic effect | Serotype 6 | EC50 | HeLa | 0.045 µg/mL |
| CCSc1ccc(Oc2ccc(C(=O)c3ccccc3)cc2)nc1C#N | cytopathic effect | TYPE 1A | EC50 | HeLa | >10 µg/mL |
| CCOC(=O)c1ccc(OCCCCOc2ccc(-c3snc(SC)c3C#N)cc2)cc1 | cytopathic effect | Serotype 89 (group B) | EC50 | HELA-OHIO | >2 µM |
| COC(=O)c1cc(CCCOc2c(C)cc(-c3noc(C)n3)cc2C)on1 | cytopathic effect | Serotype 6 | EC50 | HeLa | 0.136 µg/mL |
| CN(C)c1nc(C(F)(F)F)nc2c1ncn2Cc1cccc(F)c1 | plaque count | Serotype 30 | EC50 | M-HELA | >8 µM |
| Cc1cc(OCCCc2ccc(C(F)F)nn2)cc(C)c1-c1noc(C(F)F)n1 | cytopathic effect | serotypes 3 4 5 9 16 18 38 66 75 67 | EC80 | HeLa | 0.31 µg/mL |

The first 8 rows once more:

smiles | read by | strain | measure | cell line | value
COc1ccc(-c2snc(SC)c2C#N)cc1 | cytopathic effect | Serotype 42 (group A) | EC50 | HELA-OHIO | >12 µM
Cn1c2ccccc2c2nnc(NCC(C)(C)CO)nc21 | plaque count | 2060 | EC50 | WI-38 | 220 µg/mL
N#Cc1ccc2c(c1)CC(c1ccccc1)CO2 | plaque count | Serotype 1B | EC50 | HeLa | 0.58 µM
CCOC(=O)c1ccc(OCCCOc2ccc(-c3snc(SC)c3C#N)cc2)cc1 | cytopathic effect | Serotype 59 (group B) | EC50 | HELA-OHIO | >2 µM
Cc1cc(CCCCCOc2c(Cl)cc(C3=NCCO3)cc2Cl)on1 | plaque count | TYPE 18 | EC50 | HeLa | 0.26 µg/mL
CCCn1nc2ccc(OCCC3CCN(c4ccc(C)nn4)CC3)cc2n1 | cytopathic effect | Serotype 2 | EC50 | MRC-5 | 0.032 µg/mL
CS(=O)(=O)c1ccc(NCCc2ccc(Cl)c(Cl)c2)nc1 | cytopathic effect | TYPE 64 | EC50 | HeLa | <1.3 µg/mL
CSc1nsc(-c2ccc(OCCCOc3ccccc3)cc2)c1C#N | cytopathic effect | Serotype 59 (group B) | EC50 | HELA-OHIO | >20 µM